Results of unrelated studies side by side (data: NIAID ChemDB).

Common to all: growth or infection tests; organism: HIV-1; endpoint: EC50

Two numbers with a dash give a range or band.

{"structure": "Cc1cc(S(N)(=O)=O)ccc1NC(=O)COc1ccc(Cl)cc1C(=O)c1cccc(C#N)n1", "read by": "cytopathic effect / propidium iodide", "strain": "IIIB", "cell line": "MT-4", "result": "<0.01 µM"}
{"structure": "CC(C)C1=C2[C@H]3CC[C@@H]4[C@@]5(C)CC[C@H](OC(=O)[C@H]6C[C@@H](C(=O)O)C6(C)C)C(C)(C)[C@@H]5CC[C@@]4(C)[C@]3(C)CC[C@@]2([C@@H](O)CNC(=O)c2ccc(Cl)cc2OC2CCNCC2)CC1=O", "read by": "p24 / ELISA", "strain": "92HT599", "cell line": "MT-2", "result": "<1 µM"}
{"structure": "N#CC1=CC2Nc3ccccc3C2N(c2ccc([N+](=O)[O-])cc2)C1=O", "read by": "GFP / fluorescence", "strain": "AE-CMU06", "cell line": "HeLa", "result": "0.067 µM"}
{"structure": "[2H]C(CO)(CNC(=O)C[C@@]12CC[C@]3(C)[C@H](CC[C@@H]4[C@@]5(C)CC[C@H](OC(=O)[C@H]6C[C@@H](C(=O)O)C6(C)C)C(C)(C)[C@@H]5CC[C@]43C)C1=C(C(C)C)C(=O)C2)NC(=O)c1ccc(Cl)cc1", "read by": "p24 / ELISA", "strain": "92HT599", "cell line": "MT-2", "result": "<1 µM"}
{"structure": "Cc1ncc(-c2ccc(N(C)CCOc3ccc(C#N)cc3)cn2)c(N2CCC(C)(C)CC2)c1[C@H](OC(C)(C)C)C(=O)O", "read by": "luminescence", "strain": "NL4-3", "cell line": "MT-2", "result": "0.0079 µM"}
{"structure": "Cc1cc(OCCCN2CCOCC2)ccc1NC(=O)COc1ccc(Cl)cc1C(=O)c1cccs1", "read by": "β-galactosidase", "strain": "WTRVA", "cell line": "HeLa + HELA CD4+", "result": "0.011–0.1 µM"}
{"structure": "Cc1ncc(-c2ccc(OCC(C)CF)cn2)c(N2CCC(C)(C)CC2)c1[C@H](OC(C)(C)C)C(=O)O", "read by": "luminescence", "strain": "NL4-3", "cell line": "MT-2", "result": "0.0022 µM"}
{"structure": "Cc1cc(S(N)(=O)=O)ccc1NC(=O)COc1ccc(Cl)cc1C(=O)c1cccc(C#N)c1", "read by": "β-galactosidase", "changes": "RT-V106A Y181C", "strain": "HXB2", "cell line": "HeLa + HELA CD4+", "result": "0.011–0.1 µM"}
{"structure": "Cc1cc(Cl)ccc1OCCOc1ccc(-c2cnc(C)c([C@H](OC(C)(C)C)C(=O)O)c2N2CCC(C)(C)CC2)cn1", "read by": "luminescence", "strain": "NL4-3", "cell line": "MT-2", "result": "0.005 µM"}
{"structure": "CC(C)C1=C2[C@H]3CC[C@@H]4[C@@]5(C)CC[C@H](OC(=O)[C@H]6C[C@@H](C(=O)O)C6(C)C)C(C)(C)[C@@H]5CC[C@@]4(C)[C@]3(C)CC[C@@]2([C@@H](O)CNCc2ccc(N3CCS(=O)(=O)CC3)cc2)CC1=O", "read by": "p24 / ELISA", "strain": "92HT599", "cell line": "MT-2", "result": "<1 µM"}
{"structure": "Cc1ncc(-c2ccc(OCCn3cccc3C)cn2)c(N2CCC(C)(C)CC2)c1[C@H](OC(C)(C)C)C(=O)O", "read by": "luminescence", "strain": "NL4-3", "cell line": "MT-2", "result": "0.0072 µM"}
{"structure": "Cc1noc(C)c1CNC[C@H](O)[C@@]12CC[C@]3(C)[C@H](CC[C@@H]4[C@@]5(C)CC[C@H](OC(=O)[C@H]6C[C@@H](C(=O)O)C6(C)C)C(C)(C)[C@@H]5CC[C@]43C)C1=C(C(C)C)C(=O)C2", "read by": "p24 / ELISA", "strain": "92HT599", "cell line": "MT-2", "result": "<1 µM"}
{"structure": "O=C(COc1ccc(Cl)cc1C(=O)c1ccccc1)Nc1ccc2cn[nH]c2c1", "read by": "β-galactosidase", "changes": "RT-K103N Y181C", "strain": "HXB2 (RT-K103N Y181C) Recombinant", "cell line": "HeLa + HELA CD4+", "result": "0.011–0.1 µM"}
{"structure": "Cc1ncc(-c2ccc(OC[C@@H]3CCOC3)cn2)c(N2CCC(C)(C)CC2)c1[C@H](OC(C)(C)C)C(=O)O", "read by": "luminescence", "strain": "NL4-3", "cell line": "MT-2", "result": "0.0013 µM"}
{"structure": "Cc1cc2cn[nH]c2cc1NC(=O)COc1ccc(Cl)cc1C(=O)c1cccc(C#N)c1", "read by": "cytopathic effect / propidium iodide", "changes": "RT-Y181C", "strain": "Nevirapine-resistant (RT Y181C)", "cell line": "MT-4", "result": "<0.01 µM"}
{"structure": "Cc1cc(OCCNc2ccc(-c3cnc(C)c([C@H](OC(C)(C)C)C(=O)O)c3N3CCC(C)(C)CC3)cn2)ccc1F", "read by": "luminescence", "strain": "NL4-3", "cell line": "MT-2", "result": "0.0032 µM"}
{"structure": "CC(=O)c1c(C)nc(-c2ccccc2)nc1NC(=O)c1ccccc1", "read by": "GFP / fluorescence", "strain": "O-MVP5180", "cell line": "HeLa", "result": "5 µM"}
{"structure": "Cc1ncc(-c2ccc(NCCOc3ccccc3)cn2)c(N2CCC(C)(C)CC2)c1[C@H](OC(C)(C)C)C(=O)O", "read by": "luminescence", "strain": "NL4-3", "cell line": "MT-2", "result": "0.0016 µM"}
{"structure": "CC(C)C1=C2[C@H]3CC[C@@H]4[C@@]5(C)CC[C@H](OC(=O)[C@H]6C[C@@H](C(=O)O)C6(C)C)C(C)(C)[C@@H]5CC[C@@]4(C)[C@]3(C)CC[C@@]2([C@@H](O)CNC(=O)C2(NC(=O)c3ccc(Cl)cc3)CNC2)CC1=O", "read by": "p24 / ELISA", "strain": "92HT599", "cell line": "MT-2", "result": "<1 µM"}
{"structure": "Cc1cc(C#N)cc(C(=O)c2cc(Cl)ccc2OCC(=O)Nc2ccc(S(N)(=O)=O)cc2C)c1", "read by": "β-galactosidase", "changes": "RT-P236L", "strain": "HXB2", "cell line": "HeLa + HELA CD4+", "result": "<0.01 µM"}
{"structure": "CC(C)C1=C2[C@H]3CC[C@@H]4[C@@]5(C)CC[C@H](OC(=O)[C@H]6C[C@@H](C(=O)O)C6(C)C)C(C)(C)[C@@H]5CC[C@@]4(C)[C@]3(C)CC[C@@]2(CC(=O)NCC(C)(C)NC(=O)c2ccc(C(F)(F)F)cc2)CC1=O", "read by": "p24 / ELISA", "strain": "92HT599", "cell line": "MT-2", "result": "<1 µM"}
{"structure": "Cc1cc(S(N)(=O)=O)ccc1NC(=O)COc1ccc(Cl)cc1C(=O)c1cc(F)cc(C#N)c1", "read by": "β-galactosidase", "changes": "RT-V106I", "strain": "HXB2", "cell line": "HeLa + HELA CD4+", "result": "<0.01 µM"}

The first 3 rows once more:

{"structure": "Cc1cc(S(N)(=O)=O)ccc1NC(=O)COc1ccc(Cl)cc1C(=O)c1cccc(C#N)n1", "read by": "cytopathic effect / propidium iodide", "strain": "IIIB", "cell line": "MT-4", "result": "<0.01 µM"}
{"structure": "CC(C)C1=C2[C@H]3CC[C@@H]4[C@@]5(C)CC[C@H](OC(=O)[C@H]6C[C@@H](C(=O)O)C6(C)C)C(C)(C)[C@@H]5CC[C@@]4(C)[C@]3(C)CC[C@@]2([C@@H](O)CNC(=O)c2ccc(Cl)cc2OC2CCNCC2)CC1=O", "read by": "p24 / ELISA", "strain": "92HT599", "cell line": "MT-2", "result": "<1 µM"}
{"structure": "N#CC1=CC2Nc3ccccc3C2N(c2ccc([N+](=O)[O-])cc2)C1=O", "read by": "GFP / fluorescence", "strain": "AE-CMU06", "cell line": "HeLa", "result": "0.067 µM"}

ECn: concentration that inhibits the pathogen or its effect by n%. Neighbouring rows are from separate reports.